From patent EP4843576A2, “METHODS FOR TREATING HCV” (dated 2026) come the findings set out here.

In experiment [1] the test system is resistance-associated variants in GT 1b (Con-1). Description: Activity against resistance-associated variants, GT 1b.
The test system of experiment [2] is resistance-associated variants in GT 1a (H77). Description: Activity against resistance-associated variants, GT 1a.
Experiment [3] relates to replicon containing GT3a NS3 protease. As to the kind of experiment: Resistant colony selection study, GT3a. The note with it: concentrations ≥ 100-fold over its EC50 value.

Take `CC(C)(C)[C@@H]1NC(=O)O[C@@H]2CCC[C@H]2OC/C=C/C(F)(F)c2nc3ccccc3nc2O[C@@H]2C[C@@H](C(=O)N[C@]3(C(=O)NS(=O)(=O)C4(C)CC4)C[C@H]3C(F)F)N(C2)C1=O`: the “activity against common variants at NS3 amino acid positions 155 and 168” value in experiment [1] (GT1b variants that conferred resistance to other HCV protease inhibitors) and in experiment [2] (GT1a variants that conferred resistance to other HCV protease inhibitors) was “retained its activity” throughout. The “activity against NS5A inhibitor and NS5B inhibitor resistance-associated variants” value in experiment [1] (e.g. L28T, Y93H, S282T, C316Y, Y448H and S556G in GT 1b) is “potent activity”; in experiment [2] (e.g. M28T, M28V, Q30D, Q30R, Y93C, Y93H, Y93N, L31V+Y93H, C316Y, M414T, Y448C, Y448H, S556G and S559G in GT 1a), “potent activity”. In experiment [3], the colonies selected result is reported as “very few colonies”.
